A mixed list of measured activities; the numbers were collected in NIAID ChemDB.

Shared fields: tests in culture; organism: Staphylococcus aureus; measure: MIC

Rows are shuffled and stem from different studies.

CN1CCN(c2cc3c(cc2F)c(=O)c(C(=O)O)cn3C2CC2)CC1 ; strain: ATCC 6538P ; result: 0.78 µg/mL
CCCCCCCCCCCCSC[N+](C)(C)CCCCCCCCCCCC ; strain: ATCC33592 ; result: 10.8 µM
CCSCCNc1cc2c(cc1F)c(=O)c(C(=O)O)cn2C1CC1 ; strain: ATCC 5278 (methicillin-resistant) ; result: >100 µg/mL
O=C(NC[C@H]1CN(c2ccc3c(c2)-n2cccc2COC3)C(=O)O1)c1ccccc1 ; strain: ATCC 49951 (SMITH) ; result: >32 µg/mL
CC[C@H]1OC(=O)[C@H](C)C(=O)[C@H](C)[C@@H](O[C@@H]2O[C@H](C)C[C@H](N(C)C)[C@H]2O)[C@@]2(C)C[C@@H](C)C(=NC(C)=O)[C@H](C)[C@@H](OC/C(=N\OCc3ccc(-c4ncccn4)s3)CO2)[C@]1(C)O ; strain: 27660 (erythromycin A -resistant) ; result: 0.13 µg/mL
O=C1O[C@@H](COc2ccon2)CN1c1ccc(-n2cccc2)cc1 ; strain: 122 (novobiocin-resistant) ; result: 8 µg/mL
CCCCCCCCCCCC[N+](C)(C)COC(CCC)CCC ; strain: ATCC33592 ; result: 6.61 µM
CC[C@H]1OC(=O)[C@@](C)(F)C(=O)[C@H](C)[C@@H](O[C@@H]2O[C@H](C)C[C@H](N(C)C)[C@H]2O)[C@@]2(C)C[C@@H](C)C(=NC(C)=O)[C@H](C)[C@@H](OC/C(=N\OCc3ccc(-c4csnn4)nc3)CO2)[C@]1(C)O ; strain: 27660 (erythromycin A -resistant) ; result: 0.25 µg/mL
CC[C@H]1OC(=O)[C@H](C)C(=O)[C@H](C)[C@@H](O[C@@H]2O[C@H](C)C[C@H](N(C)C)[C@H]2O)[C@@]2(C)C[C@@H](C)C(=NC(C)=O)[C@H](C)[C@@H](OC/C(=N\Oc3ccc(-c4nccs4)nc3)CO2)[C@]1(C)O ; strain: 25923 (erythromycin-susceptible) ; result: 0.25 µg/mL
CC[C@H]1OC(=O)[C@@](C)(F)C(=O)[C@H](C)[C@@H](O[C@@H]2O[C@H](C)C[C@H](N(C)C)[C@H]2O)[C@@]2(C)C[C@@H](C)C(=NC(C)=O)[C@H](C)[C@@H](OC/C(=N\OCc3ccc(-c4ncccn4)s3)CO2)[C@]1(C)O ; strain: 29213 (erythromycin A-susceptible) ; result: 0.25 µg/mL
O=C(NC[C@H]1CN(c2ccc3c(c2)-n2cccc2COC3)C(=O)O1)OCc1ccccc1 ; strain: ATCC 29213 (MSSA) ; result: >32 µg/mL
Nc1cn(-c2ccc(N3C[C@H](COc4ccccn4)OC3=O)cc2F)cn1 ; strain: 122 (novobiocin-resistant) ; result: 4 µg/mL
CC(C)(CN)CNc1cc2c(cc1F)c(=O)c(C(=O)O)cn2C1CC1 ; strain: ATCC 5278 (methicillin-resistant) ; result: 3.12 µg/mL
Cc1cn(-c2ccc(N3C[C@H](CSC4C=NN=N4)OC3=O)cc2F)cn1 ; strain: 004 (methicillin quinolone-resistant) ; result: 32 µg/mL
CC[C@H]1OC(=O)[C@@](C)(F)C(=O)[C@H](C)[C@@H](O[C@@H]2O[C@H](C)C[C@H](N(C)C)[C@H]2O)[C@@]2(C)C[C@@H](C)C(=N)[C@H](C)[C@@H](OC/C(=N\OCc3ccc(-c4nccs4)nc3)CO2)[C@]1(C)O ; strain: 27660 (erythromycin A -resistant) ; result: 0.25 µg/mL
O=C(CBr)NC[C@H]1CN(c2ccc3c(c2)-n2cccc2COC3)C(=O)O1 ; strain: ATCC 49951 (SMITH) ; result: 4 µg/mL
COc1ccccc1CNc1cc2c(cc1F)c(=O)c(C(=O)O)cn2C1CC1 ; strain: ATCC 6538P ; result: 1.56 µg/mL
CS(=O)(=O)N[C@H]1CCN(c2ccc(N3C[C@H](COc4ccon4)OC3=O)cc2F)C1 ; strain: 004 (methicillin quinolone-resistant) ; result: 2 µg/mL
NCCCCCCCCCCNc1cc2c(cc1F)c(=O)c(C(=O)O)cn2C1CC1 ; strain: ATCC 6538P ; result: >100 µg/mL
CC[C@H]1OC(=O)[C@H](C)C(=O)[C@H](C)[C@@H](O[C@@H]2O[C@H](C)C[C@H](N(C)C)[C@H]2O)[C@@]2(C)C[C@@H](C)C(=NC(C)=O)[C@H](C)[C@@H](OC/C(=N\OCc3cccc(N)n3)CO2)[C@]1(C)O ; strain: 33591 (erythromycin methicillin-resistant) ; result: >64 µg/mL
CCOC(=S)NC[C@H]1CN(c2ccc3c(c2)-n2cccc2COC3)C(=O)O1 ; strain: ATCC 29213 (MSSA) ; result: 4 µg/mL
CCCCCCCCCCCC[N+](C)(C)CSCCCCCCCC ; strain: ATCC 6538 ; result: 12.1 µM
Cc1c(NCCO)c(F)cc2c(=O)c(C(=O)O)cn(-c3cc(N)c(F)cc3F)c12 ; strain: W44 (methicillin-resistant) ; result: 1 µg/mL
CCCCCCCC[N+](C)(C)COC(C)CCC ; strain: ATCC 6538 ; result: 0.03 µM
CC[C@H]1OC(=O)[C@H](C)C(=O)[C@H](C)[C@@H](O[C@@H]2O[C@H](C)C[C@H](N(C)C)[C@H]2O)[C@@]2(C)C[C@@H](C)C(=NC(C)=O)[C@H](C)[C@@H](OC/C(=N\OCC#Cc3cncnc3)CO2)[C@]1(C)O ; strain: 25923 (erythromycin-susceptible) ; result: 0.25 µg/mL
CC[C@H]1OC(=O)[C@@](C)(F)C(=O)[C@H](C)[C@@H](O[C@@H]2O[C@H](C)C[C@H](N(C)C)[C@H]2O)[C@@]2(C)C[C@@H](C)C(=NC(C)=O)[C@H](C)[C@@H](OC/C(=N\OCc3ccc4cnn(C(N)=O)c4c3)CO2)[C@]1(C)O ; strain: 33591 (erythromycin methicillin-resistant) ; result: >64 µg/mL
CCC(=S)NC[C@H]1CN(c2ccc3c(c2)-n2cccc2COC3)C(=O)O1 ; strain: ATCC 29213 (MSSA) ; result: 4 µg/mL
NCCNc1cc2c(cc1F)c(=O)c(C(=O)O)cn2C1CC1 ; strain: ATCC 5278 (methicillin-resistant) ; result: 25 µg/mL
CC[C@H]1OC(=O)[C@@](C)(F)C(=O)[C@H](C)[C@@H](O[C@@H]2O[C@H](C)C[C@H](N(C)C)[C@H]2O)[C@@]2(C)C[C@@H](C)C(=NC(C)=O)[C@H](C)[C@@H](OC/C(=N\OCc3ccc(C(N)=O)cc3)CO2)[C@]1(C)O ; strain: 33591 (erythromycin methicillin-resistant) ; result: >64 µg/mL
C=C1COC2[C@@H](C)C(=NC(C)=O)[C@H](C)C[C@@](C)(OC1)[C@H](O[C@@H]1O[C@H](C)C[C@H](N(C)C)[C@H]1O)[C@@H](C)C(=O)[C@@H](C)C(=O)O[C@H](CC)[C@@]2(C)O ; strain: 25923 (erythromycin-susceptible) ; result: 1 µg/mL
CC[C@H]1OC(=O)[C@@](C)(F)C(=O)[C@H](C)[C@@H](O[C@@H]2O[C@H](C)C[C@H](N(C)C)[C@H]2O)[C@@]2(C)C[C@@H](C)C(=NC(C)=O)[C@H](C)[C@@H](OC/C(=N/OCc3ccc(-c4cccc(N)n4)s3)CO2)[C@]1(C)O ; strain: 33591 (erythromycin methicillin-resistant) ; result: 64 µg/mL
O=C1O[C@@H](COc2ccon2)CN1c1ccc(-n2ccnn2)c(F)c1 ; strain: 004 (methicillin quinolone-resistant) ; result: 4 µg/mL
CNc1c(F)cc2c(=O)c(C(=O)O)cn(-c3cc(N)c(F)cc3F)c2c1C ; strain: W44 (methicillin-resistant) ; result: 0.25 µg/mL
CCCCCCCC[N+](C)(C)COCCC(C)CCCC(C)C ; strain: ATCC33592 ; result: 27.5 µM
CO/N=C1\CN(c2nc3c(cc2F)c(=O)c(C(=O)O)cn3C2CC2)CC1CN ; strain: KU2241 ; result: 0.063 µg/mL
CC[C@H]1OC(=O)[C@H](C)C(=O)[C@H](C)[C@@H](O[C@@H]2O[C@H](C)C[C@H](N(C)C)[C@H]2O)[C@@]2(C)C[C@@H](C)C(=NC(C)=O)[C@H](C)C(OC/C(=N\OCC#Cc3cccc(N)n3)CO2)[C@]1(C)O ; strain: 27660 (erythromycin-resistant) ; result: 0.13 µg/mL
CCNc1c(F)cc2c(=O)c(C(=O)O)cn(-c3cc(N)c(F)cc3F)c2c1C ; strain: MR8736 (methicillin-resistant) ; result: 0.5 µg/mL

The first 2 rows once more:

structure,strain,result
CN1CCN(c2cc3c(cc2F)c(=O)c(C(=O)O)cn3C2CC2)CC1,ATCC 6538P,0.78 µg/mL
CCCCCCCCCCCCSC[N+](C)(C)CCCCCCCCCCCC,ATCC33592,10.8 µM